PubChem BioAssay AID504761 | Drosophila RNAi Screening Center – 2011
Purpose: 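Genome-wide fly cell screen for genes dengue virus requires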 (primary screen). Cells: D.Mel-2 cells from Drosophila. Reagent: long dsRNA against Drosophila genes. Treatment: infection with dengue virus type 2; dose and infection time not stated. Read-out: 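Cells stained for dengue envelope protein and imaged; percent of infected cells per well on duplicate plates, ranked by infection, with stained nuclei counted for cell number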. Scale: infection score: higher = more virus-infected cells; cell count: higher = more cells in the well. Call rule: 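Low infection ranks in the two replicates (chance level up to 0.065) followed by a retest with a 1.5-fold or larger significant decrease, p below 0.05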. Meaning of the calls: active = confirmed: knock-down lowers infection; inactive = not picked or not confirmed.
In all, the deposit lists about 22,000 reagents; shown is an unselected part of those with a known target gene and a result. Of all reagents, 116 (0.52%) were called active. 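Calls depend on retest data that are not deposited; infection was ranked per plate without normalising between plates; the unit of the infection score is not given.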 Raw values vary from plate to plate and are shown uncorrected. A number with no mark means an inactive call. The numbers tell different reagents against one gene apart. A plus sign joins genes that one reagent is predicted to hit. The record does not give: the amount of reagent, the time to read-out.

no.	gene	reagent	infection score, replicate 1	infection score, replicate 2	cell count, replicate 1	cell count, replicate 2
1	Unc-76 (Uncoordinated 76)	1	0.47	0.59	6425	6415
2	Unc-76 (Uncoordinated 76)	2	0.69	0.8	6237	6353
3	Hacd2 (3-hydroxyacyl-CoA dehydratase 2)	1	8.93	17.3	6168	5589
4	Fdx2 (Ferredoxin 2)	1	4.95	5.14	6101	5332
5	DCTN2-p50 (Dynactin 2, p50 subunit)	1	12.8	12.7	4933	5555
6	bcd (bicoid)	1	3.92	5.78	6452	5913
7	bcd (bicoid)	2	4.02	6.77	6463	6926
8	Grip128	1	4.86	2.89	6444	6472
9	CG5255	1	2.38	4.84	6836	1548
10	CG5255	2	2.41	1.01	6819	6834
11	PGRP-SB2 (Peptidoglycan recognition protein SB2)	1	3.21	2.9	6175	6349
12	CG15048 (retired record)	1	8.91	3.03	6181	6412
13	Adk1 (Adenosine kinase 1)	1	6.9	3.64	6696	6789
14	CG30279 (retired record)	1	3.28	3.89	5848	6452
15	CG30279 (retired record)	2	12.8	16.8	6406	6585
16	Obp56b (Odorant-binding protein 56b)	1	1.74	2.29	5858	6250
17	CG7772	1	1.28	8.89	6253	6738
18	CG13473	1	10.8	7.7	6323	5649
19	CG11322	1	2.87	0.7	6451	6308
20	CG11322	2	3.35	8.71	5970	6015
21	vlc (vulcan)	1	4.98	11.3	6327	6484
22	CG13055	1	0.53	0.94	6256	6077
23	CG13055	2	9.64	24.8	5434	4613

Taken from above:
For “cell count, replicate 2”, CG5255 #2 reads 6834
Under “infection score, replicate 1”, CG13055 #2 has 9.64
Under “infection score, replicate 2”, Unc-76 (Uncoordinated 76) #2 is entered as 0.8
Entry for Grip128 under “cell count, replicate 2”: 6472
Result for vlc (vulcan) under “infection score, replicate 1”: 4.98
bcd (bicoid) #2, cell count, replicate 2: 6926

The list goes on:
no.	gene	reagent	infection score, replicate 1	infection score, replicate 2	cell count, replicate 1	cell count, replicate 2
24	viaf (viral IAP-associated factor)	1	12	14.9	5196	5696
25	mRpL21 (mitochondrial ribosomal protein L21)	1	6.23	12.7	4798	4736
26	CanA-14F (Calcineurin A at 14F)	1	2.75	2.86	6836	7027
27	CG16734	1	4.19	7.28	6728	7030
28	CG12698	1	2.49	6.84	6384	6268
29	CG12698	2	13.2	5.78	5945	6042
30	MED25 (Mediator complex subunit 25)	1	3.78	14.3	6209	6570
31	MED25 (Mediator complex subunit 25)	2	4.11	0.92	6469	6185
32	wdn (wings down)	1	1.9	1.76	6276	7197
33	wdn (wings down)	2	25.1	13.5	3555	5900
34	CG2003	1	10.1	2.37	5126	1432
35	Fa2h (Fatty acid 2-hydroxylase)	1	4.67	6.96	5755	6670
36	Fa2h (Fatty acid 2-hydroxylase)	2	16.9	10.5	6458	3174
37	CG12439	1	2.66	2.67	6016	6965
38	RhoGAP18B (Rho GTPase activating protein at 18B)	1	5.7	1.81	5495	6067
39	RhoGAP18B (Rho GTPase activating protein at 18B)	2	4.11	1.04	5498	5963
40	RhoGAP18B (Rho GTPase activating protein at 18B)	3	3.1	0.61	4673	6087
41	RhoGAP18B (Rho GTPase activating protein at 18B)	4	8.1	5.99	5862	4590
42	RhoGAP18B (Rho GTPase activating protein at 18B)	5	2.58	8.24	6520	4962
43	CG17906 + alien	1	1.5	1.89	6006	5940
44	CG7945	1	20.6	22.2	5929	6743
45	TTLL4B (Tubulin tyrosine ligase-like 4B)	1	6.47	16.3	5829	5491
46	TTLL4B (Tubulin tyrosine ligase-like 4B)	2			389	437
47	Obp46a (Odorant-binding protein 46a)	1	18.9	8.2	3585	6256
48	Pburs (Partner of Bursicon)	1	4.6	5.31	5756	6125
49	CG2854	1	3.53	2.43	6031	6344
50	hb (hunchback)	1	4.67	5.7	6533	6487
51	hb (hunchback)	2	15.2	13.5	5797	5965
52	blo (bloated)	1	3.49	12.1	5929	6484
53	blo (bloated)	2	7.67	4.64	6533	6490
54	bip1	1	2.28	4.69	6373	6417
55	lama (lamina ancestor)	1	6.89	6.45	6531	6530
56	Pvr (PDGF- and VEGF-receptor related)	1	12.8	1.86	4789	5208
57	CG11755	1	6.21	12.8	5955	4822
58	CG11755	2	6.21	3.46	6019	6668
